Construct, isoform or probe ends are uncertain for at least one entry. For part of these data: At least one verdict was read from the data and is not stated in words by the source.
What was measured:
[1] = biological target: P-BvrR (GST-BvrR phosphorylated with carbamoyl phosphate) (UniProt Q2YQY4); test: EMSA; conditions: recombinant protein, protein details: GST
[2] = biological target: P-BvrR (GST-BvrR phosphorylated with carbamoyl phosphate) (UniProt Q2YQY4); test: competition with a labelled probe; conditions: recombinant protein; protein details: GST; label: none as competitor, DIG (EMSA)
[3] = biological target: P-BvrR (GST-BvrR phosphorylated with carbamoyl phosphate) (UniProt Q2YQY4); test: fluorescence anisotropy; conditions: one-site model, no Kd reported; recombinant protein; protein details: GST
[4] = biological target: P-BvrR (GST-BvrR phosphorylated with carbamoyl phosphate) (UniProt Q2YQY4); test: DNase I footprinting; conditions: recombinant protein; protein details: GST; label: DIG (EMSA), HEX or FAM (footprinting); letters put together from the description
[5] = P-BvrR 0.1-1.6 uM, label: none as competitor, DIG (EMSA)

**Q.** What does the source list for “AGGGACCGCGCAAAACGTAATTTGTGTAAGGAGAATGCCA (double strand) [oligonucleotide 7 (-39 to +1)]”?
**A.** binding result [1, 5]: binds; binding result [2]: binds

**Q.** Does “ATCTCCACACAATGGGGCATTTCGTGCCGCAATTACCCTCG (double strand) [oligonucleotide 2 (-140 to -100)]” bind ([1]; P-BvrR 0.1-1.6 uM)?
**A.** Result: binds

**Q.** Does “ATCTCCACACAATGGGGCATTTCGTGCCGCAATTACCCTCG (double strand) [oligonucleotide 2 (-140 to -100)]” bind [3]?
**A.** Result: binds

**Q.** Does “CAGCTTCGCTGCATTGCTGGCAATGGTTTCGGCTTCTCCTGTCTGTTGCCCCTTCAATATAGGGTGTGAAAGCCGGCGTTGCGATAATGCAACATCGCATTTTTGCCATCTTCTCGACAGATTATCTCCACACAATGGGGC (double strand) [omp25 141-bp fragment (-262 to -122)]” bind ([1]; P-BvrR 0.1-1.6 uM, label: DIG, letters put together from the description)?
**A.** Result: binds

**Q.** Does “GATATGTCACCCCTGTCAGCGCGGCATGGGCGGTTTACTCC (double strand) [oligonucleotide 4 (-100 to -59)]” bind [1, 5]?
**A.** Result: binds

**Q.** Does “GATATGTCACCCCTGTCAGCGCGGCATGGGCGGTTTACTCC (double strand) [oligonucleotide 4 (-100 to -59)]” bind [2]?
**A.** Result: binds

**Q.** What does the source list for “GCCATCTTCTCGACAGATTATCTCCACACAATGGGGCATTTCGTGCCGCAATTACCCTCGATATGTCACCCCTGTCAGCGCGGCATGGGCGGTTTACTCCCGATGCTGCCCGCCCGATAAGGGACCGCGCAAAACGTAATTTGTGTAAGGAGAATGCCATGCGCACTCTTAAGTCTCTCGTAATCGTCTCGG (double strand) [omp25 193-bp fragment (-159 to +34)]”?
**A.** binding result ([1]; label: DIG (EMSA), HEX or FAM (footprinting), letters put together from the description): binds; binding result [4]: binds

From PMC10538546
